Experimental data from patent publication US8076310B2, “Phosphonate nucleosides useful as active ingredients in pharmaceutical compositions for the treatment of viral infections, and intermediates for their production” (K.U.Leuven Research & Development, priority 2004, dated 2011).

Legend:
[1] = target: T1, HIV reverse transcriptase (Human immunodeficiency virus type 1 group M subtype B, UniProt P04585); experiment: Steady-state kinetics of nucleotide incorporation in a DNA hybrid by HIV reverse transcriptase
Method: Determination of Km and Kcat values for the incorporation of dATP and PMDTApp in a DNA hybrid was carried out under steady-state conditions as described by Creighton et al. in Methods in Enzymology (1995) 262:232-256. For each determination eight different substrate concentrations in the range of 0.1 to 12.5 μM were used. Results given below are the average of three independent determinations. The reaction mixture contained 250 nM primer/template complex 0.025 U/μL HIV reverse transcriptase, and the triphosphate nucleotides to be incorporated (dATP and PMDTApp, respectively). The template sequence and the primer sequence used in this experiment are shown below. The reaction was quenched after 1, 2 and 3 minutes by adding a double volume of stop solution (90% formamide, 0.05% bromophenol blue, 0.05% xylene cyanol and 50 mM EDTA). Samples were analyzed by gel electrophoresis on a 16% polyacrylamide ureum gel in TBE buffer (89 mM Tris-borate, 2 mM EDTA buffer, pH 8.3) after heating the samples for 5 minutes at 70° C. Products were visualised by phosphorimaging. The amount of radioactivity in the bands corresponding to the products of the enzymatic reactions was determined using the Optiquant Image Analysis Software (Packard). Rate profiles were determined using GraphPad Prism® software.

[2] = target: T1, HIV reverse transcriptase; experiment: Primer/extension assay with HIV reverse transcriptase (DNA template, DNA primer); conditions: compared with natural dATP
Excerpt: The antiviral activity of the phosphonate nucleosides of the invention may be mostly explained by their intracellular metabolisation into their diphosphates (hereinafter referred as pp) followed by incorporation into the viral genome and chain termination. We used a primer/extension assay in order to compare the ability of the HIV reverse transcriptase and the human DNA polymerase-α to accept PMDTApp (see FIG. 15) as a substrate in comparison to deoxy-adenosine triphosphate (hereinafter referred as dATP). This will provide us with suitable information about the selectivity of the anti-HIV compound of the invention since the human DNA polymerase-α is mainly involved in replication of the nuclear genome while the HIV reverse transcriptase plays a key role in the replication of the viral genome.
The following incorporation study was effected with a DNA template and a DNA primer, as DNA polymerase-α and reverse transcriptase are both able to synthesize double stranded DNA (although reverse transcriptase is also able to synthesize a DNA strand using RNA as template). Both enzymes were able to extend a DNA primer with the phosphonate nucleotide, but the modified nucleotide was only a very poor substrate for the human DNA polymerase α.

[3] = steady-state, 0.025 U/μL HIV reverse transcriptase, 250 nM primer/template, average of three determinations

What does the source list for `Nc1ncnc2c1ncn2C1CC(OCP(=O)(O)OP(=O)(O)OP(=O)(O)O)CO1` (stereo not shown)?
Overall catalytic efficiency, factor of difference compared to dATP ([1]; HIV reverse transcriptase): 2.5; Kcat [1, 3]: 0.79 min − 1; Km [1, 3]: 0.29 µM; Acceptance as substrate by HIV reverse transcriptase [2]: as easily as the natural building block
